Measurements as given in patent publication US20100029568A1, “TIGHTER-BINDING C-PEPTIDE INHIBITORS OF HIV-1 ENTRY” (priority 2007, published 2010).

Tested on: HIV-1 Res 4 (SDTV)
Assay type: cell-based
Settings: Table 2

Work on `CC[C@H](C)[C@H](NC(=O)[C@H](CC(C)C)NC(=O)[C@H](CO)NC(=O)[C@H](Cc1c[nH]cn1)NC(=O)[C@@H](NC(=O)[C@H](CC(C)C)NC(=O)[C@H](CO)NC(=O)[C@@H](NC(=O)[C@H](Cc1ccc(O)cc1)NC(=O)[C@H](CCCCN)NC(=O)[C@H](CC(N)=O)NC(=O)[C@@H](NC(=O)[C@H](CCC(=O)O)NC(=O)[C@H](CCCNC(=N)N)NC(=O)[C@H](CC(=O)O)NC(=O)[C@H](Cc1c[nH]c2ccccc12)NC(=O)[C@H](CCC(=O)O)NC(=O)[C@H](CCSC)NC(=O)[C@H](Cc1c[nH]c2ccccc12)NC(=O)[C@@H](NC(=O)[C@@H](NC(=O)[C@H](Cc1c[nH]cn1)NC(=O)CNC(=O)CN)[C@@H](C)O)[C@@H](C)O)[C@@H](C)CC)[C@@H](C)CC)[C@@H](C)CC)C(=O)N[C@@H](CCC(=O)O)C(=O)N[C@@H](CCC(=O)O)C(=O)N[C@@H](CO)C(=O)N[C@@H](CCC(N)=O)C(=O)N[C@@H](CC(N)=O)C(=O)N[C@@H](CCC(N)=O)C(=O)N[C@@H](CCC(N)=O)C(=O)N[C@@H](CCC(=O)O)C(=O)N[C@@H](CCCCN)C(=O)N[C@@H](CC(N)=O)C(=O)N[C@@H](CCC(=O)O)C(=O)N[C@@H](CCC(N)=O)C(=O)N[C@@H](CCC(=O)O)C(=O)N[C@@H](CC(C)C)C(=O)N[C@@H](CC(C)C)C(=O)NCC(=O)NCC(=O)N[C@@H](Cc1c[nH]cn1)C(=O)N[C@@H](Cc1c[nH]cn1)C(=O)N[C@@H](Cc1c[nH]cn1)C(=O)N[C@@H](Cc1c[nH]cn1)C(=O)N[C@@H](Cc1c[nH]cn1)C(=O)N[C@@H](Cc1c[nH]cn1)C(=O)O` [C37-KYI] yielded an IC50 of 0.6 ± 0.1 nM.
